Test results as given in publication doi:10.1101/2020.11.06.371997.
Construct, isoform or probe ends are uncertain for at least one entry. At least one verdict rests on a figure or table, not on a statement of the authors. Protein sequences can lack the tags named with them.

Molecular target: T1, Trf2ΔN-FG3 (UmTrf2) (Ustilago maydis) (UniProt A0A0D1E1Z3)
T1 sequence (looked up): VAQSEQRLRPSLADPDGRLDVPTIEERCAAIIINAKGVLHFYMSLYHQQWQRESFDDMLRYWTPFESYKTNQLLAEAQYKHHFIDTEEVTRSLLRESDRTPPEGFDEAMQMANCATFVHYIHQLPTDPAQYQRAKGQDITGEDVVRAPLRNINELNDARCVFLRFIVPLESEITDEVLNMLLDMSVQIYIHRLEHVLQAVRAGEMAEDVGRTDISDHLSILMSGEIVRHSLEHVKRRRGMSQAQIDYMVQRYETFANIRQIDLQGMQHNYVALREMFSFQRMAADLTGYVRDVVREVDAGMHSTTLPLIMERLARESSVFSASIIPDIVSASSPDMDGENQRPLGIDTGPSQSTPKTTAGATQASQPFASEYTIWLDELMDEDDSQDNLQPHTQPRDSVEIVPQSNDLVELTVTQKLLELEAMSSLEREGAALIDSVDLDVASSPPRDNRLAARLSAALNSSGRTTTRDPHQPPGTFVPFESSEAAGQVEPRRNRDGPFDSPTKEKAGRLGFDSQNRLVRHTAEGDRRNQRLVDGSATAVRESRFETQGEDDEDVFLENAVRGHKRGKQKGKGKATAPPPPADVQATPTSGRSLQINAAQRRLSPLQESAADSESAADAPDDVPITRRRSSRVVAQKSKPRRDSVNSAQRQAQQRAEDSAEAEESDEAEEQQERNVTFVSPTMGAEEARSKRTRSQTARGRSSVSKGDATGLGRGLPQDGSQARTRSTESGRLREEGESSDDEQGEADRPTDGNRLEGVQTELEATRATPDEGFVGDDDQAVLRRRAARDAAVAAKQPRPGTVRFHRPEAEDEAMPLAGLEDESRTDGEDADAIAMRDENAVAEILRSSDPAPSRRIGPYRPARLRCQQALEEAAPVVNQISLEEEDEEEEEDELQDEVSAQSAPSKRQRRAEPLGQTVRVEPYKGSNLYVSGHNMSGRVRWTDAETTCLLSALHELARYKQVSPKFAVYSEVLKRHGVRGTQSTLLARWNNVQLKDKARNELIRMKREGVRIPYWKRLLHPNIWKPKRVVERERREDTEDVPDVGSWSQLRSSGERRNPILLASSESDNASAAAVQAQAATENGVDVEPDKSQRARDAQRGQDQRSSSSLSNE
Experiment: competition with a labelled probe
Conditions: unlabeled competitor, residues 415-1528

Sequence | binding result (prefers canonical repeat) | binding result
TTAGTCAGGGTTAGTCAGGGTTAGT (double strand) [Yl TEL duplex] | binds | 
TTAGGGTTAGGGTTAGGGTTAGGG (double strand) [TTAGGG4 duplex] |  | binds
